Measured values published in PubChem BioAssay AID1053175 (ICCB-Longwood Screening Facility, Harvard Medical School, 2014).
Several values for one entry are separate records, joined by “and”; a condition that tells them apart may be missing. Equal values may be shown once. Only a part is listed here, and it is no random draw. Activity calls are given as the source filed them.

Assay: E. coli growth inhibition, primary screen, OD600 (AID 1053175)
Conditions: Escherichia coli growth, OD600, 23 h; active compounds read low

Structure (SMILES)	OD600 absorbance
CC(=O)N1C2C3N(C(C)=O)C1C1N(C(C)=O)C(C(N1C(C)=O)N3C(C)=O)N2C(C)=O	inactive: 0.723
O=C(OCCCN1CCCC1)C(O)(c1ccccc1)C1CCCCC1 (stereo unspecified)	inactive: 0.639
Cc1ccc(NP(=O)(Oc2ccccc2)Oc2ccccc2)nc1	inactive: 0.712
CP(=O)(Oc1ccccc1)N1CCOC1=O (stereo unspecified)	inactive: 0.81
CCc1nc2c(n1)c1c(non1O)c1c2no[n+]1[O-]	inactive: 0.66
O=[N+]([O-])c1cc([N+](=O)[O-])c(CCNc2ccccc2)c([N+](=O)[O-])c1	inactive: 0.631
CCc1ccc(OP(C)(=O)Nc2cccnc2)cc1 (stereo unspecified)	inactive: 0.7
CC(C)(C)c1ccc(OP(C)(=O)O)cc1	inactive: 0.713
Nc1ccc([As](=O)(O)c2ccc(N)cc2)cc1	inactive: 0.703
COc1ccccc1OP(C)(=O)Nc1ccccc1Br (stereo unspecified)	inactive: 0.683
C[N+]1=C2C=CC=CC=C2SC12C([N+](=O)[O-])=CC([N+](=O)[O-])=C[C-]2[N+](=O)[O-] (stereo unspecified)	inactive: 0.618
CP(=O)(Nc1ccc(Cl)cc1)Oc1ccc(F)cc1 (stereo unspecified)	inactive: 0.691
CN(C)C(=O)c1c([N+](=O)[O-])cc([N+](=O)[O-])cc1[N+](=O)[O-]	inactive: 0.556
CN(C(=O)Cc1ccc(Cl)c(Cl)c1)C1CCCCC1N1CCCC1 (stereo unspecified)	inactive: 0.635 and inactive: 0.632 and inactive: 0.673
CC1CCN(C(=O)Oc2c(Cl)cc(Cl)c3cccnc23)CC1	inactive: 0.657
CP(=O)(Nc1ccc(SC(F)(F)F)cc1)Oc1ccc(F)cc1 (stereo unspecified)	inactive: 0.664
CC(C)C(=O)NC(Sc1ccccc1)C(Cl)(Cl)Cl (stereo unspecified)	inactive: 0.706
O=P(Nc1nccs1)(c1ccccc1)c1ccccc1	inactive: 0.684
CCNC(=S)N=C(N)N[N+](=O)[O-]	inactive: 0.622
CCOP(C)(=S)SCC(=O)NC(C)(CC)C(=O)O (stereo unspecified)	inactive: 0.659
c1nnnn1CCn1cnnn1	inactive: 0.736
CP(=O)(Nc1ccc2c(c1)OCCO2)Oc1ccccc1 (stereo unspecified)	inactive: 0.731
Cc1ccccc1NP(C)(=O)Nc1ccccc1C	inactive: 0.738
COc1ccc(OP(C)(=O)Nc2cccc(Br)c2)cc1 (stereo unspecified)	inactive: 0.701
CC(C)C=NN=C(N)N[N+](=O)[O-]	inactive: 0.703
COc1ccc(N)c([N+](=O)[O-])c1[N+](=O)[O-]	inactive: 0.611

Structure (SMILES)	OD600 absorbance
C=CCN1CCN(CCOC(=O)C(O)(c2ccccc2)c2ccccc2)CC1	inactive: 0.688
O=P(Nc1ccccn1)(c1ccc(Br)cc1)c1ccc(Br)cc1	inactive: 0.691
CN(C)C1(CNC(=O)c2ccc(Cl)c(S(N)(=O)=O)c2)CCCCC1	inactive: 0.671
O=P(Nc1nc2ccccc2s1)(c1ccccc1)c1ccccc1	inactive: 0.711
CCN(C(=NP(=O)(N1CCOCC1)N1CCOCC1)N1CCOCC1)c1ccc(OC)cc1	inactive: 0.689
COc1ccc(NP(C)(=O)Oc2ccccc2OC)cc1 (stereo unspecified)	inactive: 0.705
O=[N+]([O-])c1ncn(CCn2cnc([N+](=O)[O-])n2)n1	inactive: 0.707
O=[N+]([O-])c1ccc(OP2(=O)COCCO2)cc1 (stereo unspecified)	inactive: 0.676
CC(=O)NC(SC(=S)N(C)C)C(Cl)(Cl)Cl (stereo unspecified)	inactive: 0.594
O=[As](O)(c1ccccc1)c1ccc(O)cc1	inactive: 0.674
O=[N+]([O-])c1cc([N+](=O)[O-])c(NCC2CCS(=O)(=O)C2)c([N+](=O)[O-])c1 (stereo unspecified)	inactive: 0.653
Cc1cc(-c2cccc3ccccc23)c(C)cn1.O=[N+]([O-])c1cc([N+](=O)[O-])c(O)c([N+](=O)[O-])c1	inactive: 0.683
CN(C(=O)Cc1ccc(Cl)c(Cl)c1)C1CC[C@@]2(CCCO2)CC1N1CCCC1 (stereo partly specified)	inactive: 0.706
O=[N+]([O-])c1ccc(O)c(C=NNc2ccc([N+](=O)[O-])cc2[N+](=O)[O-])c1	inactive: 0.622
Cc1c(C(c2ccc3c(c2)OCO3)c2c(C)n(C)n(-c3ccccc3)c2=O)c(=O)n(-c2ccccc2)n1C.O=[N+]([O-])c1cc([N+](=O)[O-])c(O)c([N+](=O)[O-])c1	inactive: 0.696
Nc1ccc([As](=O)(O)c2ccc([N+](=O)[O-])cc2)cc1	inactive: 0.655
C(Cc1nn[nH]n1)Cc1nn[nH]n1	inactive: 0.698
O=C(OC1CN2CCC1CC2)c1cccc(Cl)c1 (stereo unspecified)	inactive: 0.716
O=C(NC1CCS(=O)(=O)C1)NP(=S)(Oc1ccccc1)Oc1ccccc1 (stereo unspecified)	inactive: 0.654
c1ccc(-c2nn[nH]n2)c(-c2nn[nH]n2)c1	inactive: 0.667
Cc1ccc(NP(=O)(Oc2cccc(C)c2)Oc2cccc(C)c2)nc1	inactive: 0.699
O=P1(N(CCCl)CCCl)OCCC2CCCCN21 (stereo unspecified)	inactive: 0.687
CCOC(=O)c1ccc(NP(C)(=O)Oc2ccc(F)cc2)cc1 (stereo unspecified)	inactive: 0.656
COc1ccc(OP(C)(=O)Nc2ccc(SC(F)(F)F)cc2)cc1 (stereo unspecified)	inactive: 0.657
Cc1c([N+](=O)[O-])cc([N+](=O)[O-])c(Br)c1[N+](=O)[O-]	inactive: 0.686
COC(=O)c1cc2c(s1)N=C(c1ccccc1)N(C)P2(=O)N1CCOCC1 (stereo unspecified)	inactive: 0.712

Structure (SMILES)	OD600 absorbance
Cc1ccc(OP(=O)(Nc2ccccn2)Oc2ccc(C)cc2)cc1	inactive: 0.679
CC(=O)NC(SC(=S)N(CC(C)C)CC(C)C)C(Cl)(Cl)Cl (stereo unspecified)	inactive: 0.683
O=C(OC1CN2CCC1CC2)c1ccccc1 (stereo unspecified)	inactive: 0.647
CC1OP(=O)(Oc2ccccc2)CC2OC12 (stereo unspecified)	inactive: 0.706
CCN(CC)CCCOC(=O)C(O)(c1ccccc1)C1CCCCC1 (stereo unspecified)	inactive: 0.733
CCC(=O)N1C2C3N(C(=O)CC)C1C1N(C(=O)CC)C(C(N1C(=O)CC)N3C(=O)CC)N2C(=O)CC	inactive: 0.712
CP(=O)(Nc1ccccc1)Oc1ccc(F)cc1 (stereo unspecified)	inactive: 0.679
Cc1ccccc1OP(=O)(Nc1ccccn1)Oc1ccccc1C	inactive: 0.681
CC(NC(=O)COC(=O)C(O)(c1ccccc1)c1ccccc1)c1ccccc1 (stereo unspecified)	inactive: 0.692
CN(C)C(=O)Oc1noc2ccccc12	inactive: 0.66
O=[N+]([O-])c1cc([N+](=O)[O-])c(OC2CCCCC2O)c([N+](=O)[O-])c1 (stereo unspecified)	inactive: 0.668
CN(C(=O)Cc1ccccc1)C1CC[C@]2(CCCO2)CC1N1CCCC1 (stereo partly specified)	inactive: 0.732
O=P1(Nc2nc3ccc(Cl)cc3s2)COc2ccccc2O1 (stereo unspecified)	inactive: 0.683
CCOc1ccc(C2=NCC(CBr)S2)cc1 (stereo unspecified)	inactive: 0.687
CCc1cc(O)c([N+](=O)[O-])c(C)c1[N+](=O)[O-]	inactive: 0.615
CP(=O)(Nc1ccccc1F)Oc1ccccc1 (stereo unspecified)	inactive: 0.699
CC(C)(C)C(=O)NC(Sc1ccccc1)C(Cl)(Cl)Cl (stereo unspecified)	inactive: 0.679
NC(=NO)c1c(N)no[n+]1[O-]	inactive: 0.742
CC(=O)c1ccc(N2CC2c2ccncc2)cc1 (stereo unspecified)	inactive: 0.647
O=C(OC1CN2CCC1CC2)c1ccc([N+](=O)[O-])cc1 (stereo unspecified)	inactive: 0.652
Cc1ccccc1CN(C)C(=O)COC(=O)C(O)(c1ccccc1)c1ccccc1	inactive: 0.658
O=C(OCCN1CCN(CCOCc2ccccc2)CC1)C(O)(c1ccccc1)c1ccccc1	inactive: 0.7
CC(=O)Nc1ccc([As](=O)(O)O)c(O)c1	inactive: 0.721
CC(=O)Nc1ccc(Oc2c([N+](=O)[O-])cc([N+](=O)[O-])cc2[N+](=O)[O-])cc1	inactive: 0.674
